Measured values from several laboratories, pooled; numbers as filed in NIAID ChemDB.

Shared fields: cytotoxicity tests; measure: CC50

Lines come from different laboratories, so protocols vary. CCn is the concentration with n% toxicity to the cells.

CSc1nc(N)cc(OCCOCP(=O)(O)O)n1 ; cells: L1210 ; result: <10 µM
S=C(S)N1CCCCC1 ; cells: VERO ; result: 8.3 µg/mL
CCOC(=O)c1ccc2c(c1)nc(-c1ccc(Cl)cc1)n2CCN1CCCOC1 ; cells: Vero cell ; read by: MTT ; result: >62.5 µg/mL
Nc1nc(NC2CC2)cc(OCCOCP(=O)(O)O)n1 ; cells: CCRF-CEM ; result: <10 µM
CC(=O)NC1N=C(c2ccccc2)c2cc(Cl)ccc2NC1=O ; cells: VERO ; result: 5 µM
CCOC(=O)c1ccc2nc(-c3ccc([N+](=O)[O-])cc3)[nH]c2c1 ; cells: Vero cell ; read by: MTT ; result: >62.5 µg/mL
Cc1c2cnccc2c(C)c2c1c1ccccc1n2CCCCCCNCc1ccccc1 ; cells: VERO ; result: 0.69 µg/mL
CC(C)C(=O)NC1NC(c2ccccc2)(c2cccc(Cl)c2)c2ccccc2NC1=O ; cells: HEP-2 ; result: 6 µM
CCOC(=O)c1ccc2c(c1)nc(-c1ccc(OC)cc1)n2CCN1CCCOC1 ; cells: Vero cell ; read by: MTT ; result: >62.5 µg/mL
CCC[C@@H]1C[C@@H](C(=O)N[C@@H]([C@H]2O[C@H](SC)[C@H](O)[C@@H](O)[C@H]2O)[C@@H](C)O)N(C)C1 ; cells: HeLa ; result: >100 µg/mL
Nc1cc(SCCOCP(=O)(O)O)nc(N)n1 ; cells: L1210 ; result: <10 µM
C=C1CCOC2(C(O)C(C)(O)CO)NC(=O)C1(O)NC2=O ; cells: HeLa ; result: >200 µg/mL
CCOC(=O)c1ccc2c(c1)nc(-c1ccc(Cl)cc1)n2CCN1CCCC1=O ; cells: Vero cell ; read by: MTT ; result: >62.5 µg/mL
CCOC(=O)C(NC(=O)c1ccccc1)(N1CCN(c2cc3c(cc2F)c(=O)c(C(=O)O)cn3C2CC2)CC1)C(F)(F)F ; cells: VERO ; result: >62.5 µg/mL
Nc1ncnc2c([C@@H]3O[C@H](CO)[C@@H](O)[C@H]3O)[nH]nc12 ; cells: HeLa ; result: 54 µM
COC(=O)NC1N=C(c2ccccc2)c2ccccc2NC1=O ; cells: HEP-2 ; result: 9.6 µM
ClCc1c(-c2ccccc2)oc(-c2ccccc2)c1CCl ; cells: VERO ; result: >50 µg/mL
C/C=C/C(=O)OC ; cells: HeLa ; result: >200 µg/mL
C=C(C)C1CC=C(C)/C(=N/NC(=O)c2cccnc2)C1 ; cells: VERO ; result: 113 µg/mL
N[C@H]1C(C=O)=CC=C[C@@H]1O ; cells: HeLa ; result: 36 µM
O=C1c2ccccc2C(=O)c2sc(Nc3ccc([N+](=O)[O-])cc3)nc21 ; cells: VERO ; result: 1.9 µg/mL
Nc1ncnc2c1ncn2[C@@H]1O[C@](F)(COS(N)(=O)=O)[C@@H](O)[C@H]1O ; cells: HeLa ; result: 75 µg/mL
CCCCN(CCCC)CCNc1ccc(C)c2sc3cc(Cl)ccc3c(=O)c12 ; cells: VERO ; result: >2.5 µg/mL
C[C@H]1CCC/C=C/[C@@H]2C[C@H](O)C[C@H]2[C@@H](O)/C=C/C(=O)O1 ; cells: HeLa ; result: <10 µg/mL
CN(C)c1cc(=O)n(CCOCP(=O)(O)O)c(N)n1 ; cells: L929 ; result: <10 µM
O=C1C2=Nc3ccccc3C(O)N2c2ccccc21 ; cells: VERO ; result: 5.4 µg/mL
CCOC(=O)c1ccc2c(c1)nc(-c1ccc(N3CCOCC3)cc1)n2CCN1CCCC1=O ; cells: Vero cell ; read by: MTT ; result: >62.5 µg/mL
CCCNCC(=O)Nc1ccc(C)c(Cl)c1 ; cells: VERO ; result: 57.91 µg/mL
O=C(N[C@H]1N=C(c2ccccc2)c2ccccc2NC1=O)c1ccccc1O ; cells: HEP-2 ; result: 2 µM
CCCCN(CCCC)CCNc1ccc(C)c2sc3c(Cl)cccc3c(=O)c12 ; cells: VERO ; result: 29.9 µg/mL
COc1ccc(S)cc1C(=O)NC1N=C(c2ccccc2)c2ccccc2NC1=O ; cells: HEP-2 ; result: 3.8 µM
OC[C@@H](O)C(O)[C@H](O)CO ; cells: HeLa ; result: >200 µg/mL
O=C1c2ccccc2C(=O)c2c1oc1cc(O)c(Cl)cc21 ; cells: VERO ; result: >10 µg/mL
CCOC(=O)c1ccc2c(c1)nc(-c1cccc(-c3ccc(F)cc3)c1)n2CCN1CCCC1=O ; cells: Vero cell ; read by: MTT ; result: >62.5 µg/mL

The last 4 rows once more:

COc1ccc(S)cc1C(=O)NC1N=C(c2ccccc2)c2ccccc2NC1=O ; cells: HEP-2 ; result: 3.8 µM
OC[C@@H](O)C(O)[C@H](O)CO ; cells: HeLa ; result: >200 µg/mL
O=C1c2ccccc2C(=O)c2c1oc1cc(O)c(Cl)cc21 ; cells: VERO ; result: >10 µg/mL
CCOC(=O)c1ccc2c(c1)nc(-c1cccc(-c3ccc(F)cc3)c1)n2CCN1CCCC1=O ; cells: Vero cell ; read by: MTT ; result: >62.5 µg/mL